Source: ChEMBL document CHEMBL1201862, “PubChem BioAssay data set” (2004)
Only a part is listed here, and it is no random draw. Only a part of the results of these assays is listed, not drawn at random.

Target: T1, Protein RecA (Mycobacterium tuberculosis) (UniProt P9WHJ3)
T1 sequence (whole entry): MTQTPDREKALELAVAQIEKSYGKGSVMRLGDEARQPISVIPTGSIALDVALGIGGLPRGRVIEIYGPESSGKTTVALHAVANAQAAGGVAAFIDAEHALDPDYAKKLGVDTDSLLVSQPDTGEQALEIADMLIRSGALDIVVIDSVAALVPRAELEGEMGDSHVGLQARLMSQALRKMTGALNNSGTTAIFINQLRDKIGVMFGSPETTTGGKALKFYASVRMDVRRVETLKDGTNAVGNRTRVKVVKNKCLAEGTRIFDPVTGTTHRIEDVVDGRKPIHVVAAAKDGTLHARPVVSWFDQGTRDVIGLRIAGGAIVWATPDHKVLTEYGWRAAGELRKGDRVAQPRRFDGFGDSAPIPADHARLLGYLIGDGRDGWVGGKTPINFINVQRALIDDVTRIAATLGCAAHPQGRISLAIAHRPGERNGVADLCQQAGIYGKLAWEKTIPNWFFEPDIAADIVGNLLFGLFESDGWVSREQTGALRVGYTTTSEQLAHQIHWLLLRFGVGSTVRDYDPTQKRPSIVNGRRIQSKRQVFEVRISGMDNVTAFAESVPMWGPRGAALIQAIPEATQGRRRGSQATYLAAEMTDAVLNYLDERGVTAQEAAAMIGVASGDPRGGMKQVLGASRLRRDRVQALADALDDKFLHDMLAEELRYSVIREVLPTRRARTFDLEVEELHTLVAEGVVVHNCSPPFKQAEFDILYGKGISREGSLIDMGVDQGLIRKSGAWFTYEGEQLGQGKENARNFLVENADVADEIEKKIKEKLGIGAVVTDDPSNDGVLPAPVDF
Test: M. tuberculosis H37Rv growth inhibition, dose response, strain H37Rv (AID 489010); call rule not given here;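 further: whole Mycobacterium tuberculosis cells grown in culture and not purified RecA protein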
Format: functional

## CCc1nc2c([nH]1)c1no[n+]([O-])c1c1no[n+]([O-])c21
  IC90: active: 14.9 µM
